The target in this assay is Paeniclostridium sordellii hemorrhagic toxin (TcsH), recombinant, His-tagged (Paeniclostridium sordellii, UniProt M9ZTT7 1-2618).

B1: Fc-tagged TMPRSS2^106-492/R255Q (ectodomain of human TMPRSS2 with R255Q) (Fc fusion)
chain: WKFMGSKCSNSGIECDSSGTCINPSNWCDGVSHCPGGEDENRCVRLYGPNFILQVYSSQRKSWHPVCQDDWNENYGRAACRDMGYKNNFYSSQGIVDDSGSTSFMKLNTSAGNVDIYKKLYHSDACSSKAVVSLRCIACGVNLNSSRQSQIVGGESALPGAWPWQVSLHVQNVHVCGGSIITPEWIVTAAHCVEKPLNNPWHWTAFAGILRQSFMFYGAGYQVEKVISHPNYDSKTKNNDIALMKLQKPLTFNDLVKPVCLPNPGMMLQPEQLCWISGWGATEEKGKTSEVLNAAKVLLIETQRCNSRYVYDNLITPAMICAGFLQGNVDSCQGDSGGPLVTSKNNIWWLIGDTSWGSGCAKAYRPGVYGNVMVFTDWIYRQMRADG
In general, Kd refers to the free concentration of one partner at which half of the binding sites on the other are occupied at equilibrium, for simple one-to-one binding. Regarding B1, the equilibrium dissociation constant (Kd) was ~0.13 nM.

Values taken from paper PMC9321280 (Nature Communications, 2022).
